The experiment deals with Rattus norvegicus. The experiment in a line: Inhibition of lethal factor-induced toxicity in Fischer 344 rat assessed as increase in median survival time at 10 mg/kg, iv relative to control.

On to `Cc1cc(CNCCCC[C@@H](Nc2cc(C)c(F)c(C)c2)C(=O)NO)ccc1F`, for which the Activity was found to be 100%.

The values above are taken from ChEMBL document CHEMBL1268892, “Antidotes to anthrax lethal factor intoxication. Part 1: Discovery of potent lethal factor inhibitors with in vivo efficacy” (Bioorg Med Chem Lett, 2010).
